Results reported in patent US8785211B2 (priority 2005, dated 2014).

Biological target: α-hemolysin (M113R)7/am7-βCD transient complex (Staphylococcus aureus, UniProt P09616, M139R)
Conditions: +130 mV; for Dwell time τoff: pH 8.0 Tris-HCl 25 mM, 1 M KCl, averaged from three independent measurements, over 500 events each; for Peak value of current amplitude, average: all 4 nucleotides present, 5 independent experiments, normalised to cyclodextrin peak at 65 pA; for Average value (mean) of the current amplitude distribution / σ of the Gaussian current amplitude distribution: one nucleotide on cis side, three independent experiments, normalised between 0 and 65 pA

| SMILES | Dwell time τoff | Peak value of current amplitude, average | Average value (mean) of the current amplitude distribution | σ of the Gaussian current amplitude distribution |
| --- | --- | --- | --- | --- |
| Nc1ccn([C@H]2C[C@H](O)[C@@H](COP(=O)(O)O)O2)c(=O)n1 | 10.5 ± 0.4 ms | 20.2 ± 0.5 pA | 20.0 pA | 0.51 pA |
| Nc1ncnc2c1ncn2[C@H]1C[C@H](O)[C@@H](COP(=O)(O)O)O1 | 7.1 ± 0.2 ms | 18.6 ± 0.6 pA | 18.4 pA | 0.54 pA |
